Consider 66 substances from PMC6150173 (Molecules : A Journal of Synthetic Chemistry and Natural …, 2017).

A short description of this data set: general procedure: Fmoc solid-phase peptide synthesis; MBHA resin (0.4 mmol/g) with Fmoc-Rink-amide linker; Oxyma/DIPCDI; cyclization with PyOxim/Oxyma/DIEA. The note with it: whole synthesis, 220 nm, scale of the general procedure MBHA resin 3.5 g.
Turning to cyclo(KKKKKWKKLQ), the “crude HPLC purity” value is listed as greater than 99%.

In the case of cyclo(KKKKKWLLLQ), the “crude HPLC purity” value is greater than 99%. cyclo(KKKKLWKLLQ): the “crude HPLC purity” value is greater than 99%.

For cyclo(KKKKLWLKLQ), the “crude HPLC purity” value was greater than 99%. For cyclo(KKKKLWLLKQ), the “crude HPLC purity” value was greater than 99%.

Turning to cyclo(KKKLKWKKLQ), the “crude HPLC purity” value was greater than 99%.

With cyclo(KKKLKWKLLQ), the “crude HPLC purity” value is on record as greater than 99%. Regarding cyclo(KKKLKWLKLQ), the “crude HPLC purity” value is greater than 99%. With cyclo(KKKLKWLLKQ), the “crude HPLC purity” value is reported as 96%. Take cyclo(KKKLLWKKLQ): the “crude HPLC purity” value is listed as greater than 99%. Next, cyclo(KKKLLWKLKQ): greater than 99%; cyclo(KKKLLWLKKQ): greater than 99%; cyclo(KKLKKWKKLQ): 91%. Turning to cyclo(KKLKKWKLLQ), the “crude HPLC purity” value was greater than 99%. Next, cyclo(KKLKKWLKLQ): 90%.

Consider cyclo(KKLKKWLLKQ), for which the “crude HPLC purity” value was greater than 99%. As for cyclo(KKLKLWKKLQ), the “crude HPLC purity” value is 88%. Regarding cyclo(KKLKLWKLKQ), the “crude HPLC purity” value is listed as greater than 99%. For the substance cyclo(KKLKLWLKKQ), the “crude HPLC purity” value is greater than 99%. cyclo(KKLLKWKKLQ): the “crude HPLC purity” value was determined as 88%. On to cyclo(KKLLKWKLKQ), for which the “crude HPLC purity” value is greater than 99%. Take cyclo(KKLLKWLKKQ): the “crude HPLC purity” value stood at 90%. cyclo(KKLLLWKKKQ): the “crude HPLC purity” value is recorded as 97%. As to cyclo(KLKKKWKKLQ), the “crude HPLC purity” value was determined as 93%.

Regarding cyclo(KLKKKWKLLQ), the “crude HPLC purity” value amounted to 88%. Next, cyclo(KLKKKWLKLQ): 96%. Next, cyclo(KLKKKWLLKQ): greater than 99%; cyclo(KLKKLWKKLQ): 92%; cyclo(KLKKLWKLKQ): 84%.

cyclo(KLKKLWLKKQ): the “crude HPLC purity” value was greater than 99%. For cyclo(KLKLKWKKLQ), the “crude HPLC purity” value is reported as greater than 99%.

Take cyclo(KLKLKWKLKQ): the “crude HPLC purity” value came to 91%. On to cyclo(KLKLKWLKKQ), for which the “crude HPLC purity” value is on record as greater than 99%. As for cyclo(KLKLLWKKKQ), the “crude HPLC purity” value was determined as 91%. In the case of cyclo(KLLKKWKKLQ), the “crude HPLC purity” value was found to be 83%. As for cyclo(KLLKKWKLKQ), the “crude HPLC purity” value was greater than 99%. Turning to cyclo(KLLKKWLKKQ), the “crude HPLC purity” value is reported as 87%. With cyclo(KLLKLWKKKQ), the “crude HPLC purity” value is 87%. For cyclo(KLLLKWKKKQ), the “crude HPLC purity” value came out at 88%. For cyclo(KLLLKWKKLQ), the “crude HPLC purity” value is given as 93%. For the substance cyclo(LKKKKWKKLQ), the “crude HPLC purity” value is greater than 99%. cyclo(LKKKKWKLLQ): the “crude HPLC purity” value is greater than 99%.

cyclo(LKKKKWLKLQ): the “crude HPLC purity” value was greater than 99%. On to cyclo(LKKKKWLLKQ), for which the “crude HPLC purity” value is recorded as 96%. In the case of cyclo(LKKKLWKKLQ), the “crude HPLC purity” value was found to be 91%. For cyclo(LKKKLWKLKQ), the “crude HPLC purity” value amounted to 89%. Next, cyclo(LKKKLWLKKQ): greater than 99%. Then cyclo(LKKLKWKKLQ), with greater than 99%; and cyclo(LKKLKWKLKQ), with 89%; and cyclo(LKKLKWLKKQ), with 81%. cyclo(LKKLLWKKKQ): the “crude HPLC purity” value turned out to be 85%. As for cyclo(LKLKKWKKLQ), the “crude HPLC purity” value amounted to 88%. In the case of cyclo(LKLKKWKLKQ), the “crude HPLC purity” value is recorded as 97%.

As to cyclo(LKLKKWLKKQ), the “crude HPLC purity” value came out at 87%.

As to cyclo(LKLKLWKKKQ), the “crude HPLC purity” value is greater than 99%.

Regarding cyclo(LKLLKWKKKQ), the “crude HPLC purity” value stood at 93%.

On to cyclo(LKLLKWKKLQ), for which the “crude HPLC purity” value was found to be 90%. Turning to cyclo(LLKKKWKKLQ), the “crude HPLC purity” value was greater than 99%. With cyclo(LLKKKWKLKQ), the “crude HPLC purity” value is given as 87%. Consider cyclo(LLKKKWLKKQ), for which the “crude HPLC purity” value is given as 90%.

Consider cyclo(LLKKLWKKKQ), for which the “crude HPLC purity” value came to 86%. For the substance cyclo(LLKLKWKKKQ), the “crude HPLC purity” value is on record as greater than 99%. As for cyclo(LLKLKWKKLQ), the “crude HPLC purity” value is given as 99%. Then cyclo(LLLKKWKKKQ), with 90%. As to cyclo(LLLKKWKKLQ), the “crude HPLC purity” value is given as 93%. Then cyclo(LLLLKWKKLQ), with 96%.
